Genome-wide point mutation profile of HIV-1: RT

Protein: RT of HIV-1 NL4-3, numbered from its first residue.
Effects on overlapping genes or RNA elements are not listed.

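Seven fragments of pNL4-3 were mutated by error-prone PCR, and each virus pool was passaged in CEM T cells. The RC index is the frequency of a change after passage round 2 divided by its frequency in the plasmid library.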

RC index: lower means poorer replication; rough cut-offs are 0.1 (lethal) and 0.2 (tolerated). Each entry names the wild-type residue, its position and the residue put in its place. Input reads are the counts in the plasmid library.

| change | base | input reads | RC index |
|---|---|---|---|
| V118A | T2902C | 499 | 0.0459 |
| L120I | T2907A | 361 | 0.0115 |
| L120S | T2908C | 203 | 0.0564 |
| D121N | G2910A | 168 | 0.465 |
| K122R | A2914G | 267 | 0.0312 |
| K122N | A2915C | 91 | 0.0229 |
| K122N | A2915T | 241 | 0.0561 |
| D123Y | G2916T | 210 | 0.0496 |
| F124I | T2919A | 496 | 0.0189 |
| F124L | T2919C | 242 | 0.0344 |
| F124S | T2920C | 256 | 0.0244 |
| R125K | G2923A | 174 | 0.0419 |
| R125S | G2924T | 83 | 0.113 |
| K126E | A2925G | 331 | 0.0252 |
| K126R | A2926G | 346 | 0.0361 |
| Y127N | T2928A | 148 | 0.0352 |
| T128S | A2931T | 191 | 0.0218 |
| T128N | C2932A | 218 | 0.0477 |
| T128S | C2932G | 55 | 0.0378 |
| T128I | C2932T | 370 | 0.0366 |
| A129T | G2934A | 494 | 0.114 |
| A129P | G2934C | 93 | 0.0336 |
| A129S | G2934T | 68 | 0.0765 |
| A129E | C2935A | 142 | 0.0440 |
| A129V | C2935T | 432 | 0.0675 |
| F130L | T2937C | 157 | 0.0265 |
| T131A | A2940G | 156 | 0.0534 |
| T131N | C2941A | 31 | 0.134 |
| T131I | C2941T | 305 | 0.0614 |
| I132V | A2943G | 461 | 0.0203 |
| I132L | A2943T | 259 | 0.0161 |
| I132T | T2944C | 141 | 0.0664 |
| I132M | A2945G | 121 | 0.0258 |
| S134C | A2949T | 371 | 0.0140 |
| I135L | A2952T | 283 | 0.0221 |
| I135T | T2953C | 204 | 0.0255 |
| I135M | A2954G | 142 | 0.0220 |
| N136D | A2955G | 157 | 0.0398 |
| N136I | A2956T | 216 | 0.0289 |
| N137D | A2958G | 116 | 0.0628 |
| N137S | A2959G | 241 | 0.0173 |
| N137I | A2959T | 287 | 0.0181 |
| E138K | G2961A | 133 | 0.141 |
| E138V | A2962T | 365 | 0.0200 |
| G141R | G2970A | 98 | 0.475 |
| G141W | G2970T | 193 | 0.170 |
| G141V | G2971T | 170 | 0.152 |
| Y144N | T2979A | 305 | 0.0452 |
| Q145L | A2983T | 256 | 0.0269 |
| Y146H | T2985C | 182 | 0.161 |
| Y146C | A2986G | 223 | 0.0928 |
| N147D | A2988G | 370 | 0.0280 |
| N147I | A2989T | 505 | 0.0273 |
| V148G | T2992G | 34 | 0.101 |
| L149H | T2995A | 270 | 0.0128 |
| P150T | C2997A | 101 | 0.120 |
| Q151H | G3002T | 537 | 0.0996 |
| G152E | G3004A | 109 | 0.902 |
| G152V | G3004T | 139 | 0.112 |
| W153G | T3006G | 72 | 0.0479 |
| W153C | G3008T | 241 | 0.0429 |
| K154T | A3010C | 86 | 0.0802 |
| K154R | A3010G | 401 | 0.0516 |
| K154I | A3010T | 307 | 0.0169 |
| K154N | A3011T | 448 | 0.0577 |
| G155E | G3013A | 54 | 0.351 |
| S156T | T3015A | 605 | 0.0314 |
| P157S | C3018T | 443 | 0.0857 |
| A158S | G3021T | 266 | 0.0973 |
| A158V | C3022T | 341 | 0.177 |
| I159M | A3026G | 172 | 0.0802 |
| F160I | T3027A | 408 | 0.0634 |
| F160S | T3028C | 435 | 0.0555 |
| Q161K | C3030A | 327 | 0.0791 |
| Q161L | A3031T | 444 | 0.0427 |
| Q161H | G3032T | 189 | 0.100 |
| C162G | T3033G | 219 | 0.0394 |
| C162F | G3034T | 47 | 0.294 |
| S163C | A3036T | 228 | 0.0530 |
| S163N | G3037A | 568 | 0.170 |
| S163I | G3037T | 248 | 0.0626 |
| S163R | C3038A | 122 | 0.0990 |
| M164I | G3041A | 221 | 0.172 |
| M164I | G3041T | 104 | 0.415 |
| T165P | A3042C | 121 | 0.0570 |
| T165A | A3042G | 469 | 0.0735 |
| T165S | A3042T | 478 | 0.0397 |
| K166Q | A3045C | 153 | 0.0451 |
| K166I | A3046T | 247 | 0.0349 |
| L168S | T3052C | 321 | 0.0269 |
| L168F | A3053T | 379 | 0.0273 |
| E169D | G3056T | 190 | 0.0726 |
| P170L | C3058T | 115 | 0.390 |
| F171L | T3060C | 211 | 0.0736 |
| F171S | T3061C | 294 | 0.0763 |
| F171C | T3061G | 49 | 0.0704 |
| R172G | A3063G | 324 | 0.0373 |
| R172I | G3064T | 83 | 0.249 |
| K173R | A3067G | 350 | 0.0394 |
| Q174H | A3071C | 127 | 0.0543 |
| Q174H | A3071T | 424 | 0.0203 |
| N175D | A3072G | 203 | 0.0510 |
| N175Y | A3072T | 273 | 0.0253 |
| N175S | A3073G | 257 | 0.0403 |
| D177V | A3079T | 297 | 0.0465 |

15 of these entries, quoted again:

| change | base | input reads | RC index |
|---|---|---|---|
| N175D | A3072G | 203 | 0.0510 |
| G152V | G3004T | 139 | 0.112 |
| N147D | A2988G | 370 | 0.0280 |
| I135M | A2954G | 142 | 0.0220 |
| F130L | T2937C | 157 | 0.0265 |
| I159M | A3026G | 172 | 0.0802 |
| G141R | G2970A | 98 | 0.475 |
| S163C | A3036T | 228 | 0.0530 |
| Q161K | C3030A | 327 | 0.0791 |
| L168S | T3052C | 321 | 0.0269 |
| K173R | A3067G | 350 | 0.0394 |
| Q174H | A3071C | 127 | 0.0543 |
| W153C | G3008T | 241 | 0.0429 |
| N137I | A2959T | 287 | 0.0181 |
| Y127N | T2928A | 148 | 0.0352 |

The authors read an index above 1 as above wild type (1.9% of all changes in the genome). Nucleotide positions follow pNL4-3. Clones carried about five changes per kilobase, which can drag down the index of neutral changes.

The measurements come from Al-Mawsawi et al. 2014 (doi:10.1186/s12977-014-0124-6).